Measured values: patent US3932512A, “Antiviral 1,2,3,4-tetrahydro-1,-alkano naphthalenamine derivatives” (priority 1972, dated 1976)

System: influenza A2 virus Aichi/2/68
Assay: preventive control of influenza A2 in mice, compound I at different levels
Assay type: in vivo, influenza A2 virus Aichi/2/68 (in Charles River white mice)

N[C@H]1C[C@@H]2C[C@H]1c1ccccc12 (relative stereo) [Compound I]
Mean survival time (40 mg/kg): 10.5 days | Mean survival time increase (40 mg/kg): 0.4 days | Mean survival time (55 mg/kg): 11.2 days | Mean survival time increase (55 mg/kg): 1.1 days | Mean survival time (70 mg/kg): 12.4 days | Mean survival time increase (70 mg/kg): 2.3 days | Mean survival time (85 mg/kg): 12.9 days | Mean survival time increase (85 mg/kg): 2.8 days | Mean survival time (100 mg/kg): 13.6 days | Mean survival time increase (100 mg/kg): 3.5 days
